# From article PMC12153317 (mBio, 2025)
# B1: S8V1-157 Fab (BLI and size exclusion chromatography) (Fab, V domains shown)
# VH: EVQLVQSGAEVKKPGASVKVSCKVSGYRLTALSMHWVRQAPGKGLEWMGGFDPEEDETIYAQNFQGRVTLTEDTSTDTVYMELSSLRSEDTGVYYCATLMGANPFDYWGQGTLIIVSG
# VL: not shown
# notes: source: 293F, transient transfection, purified (TALON resin, Superdex 200)
# B2: S5V2-29 Fab (Fab, V domains shown)
# VH: QVQLQESGPGLVKPSETLSLTCTVSGGSVSSNIYYWSWIRQTPGKGLEWLGYFYHSGSSNYNPSLKSRVTISGDMSKNQFSLKLKSVTAADTAIYYCARGGVENLMLVAVIQEMWYFDLWGRGTLVTVSG
# VL: DIQMTQTPSSLSASVGDRVTITCRASQSIGASLNWYQQKPGEAPKFLIYAASNLQSGVPSRFSGSGSGTDFTLTISSLQPEDFATYYCQQQGTFGQGTKLEIK
# notes: as for B1
# Target: H3 A/Aichi/02/1968(X31) monomeric HA head, His6-tagged (Influenza A virus …, UniProt P03437, strain)
# Experiment: BLI
row,Binder,binding result
1,B1,binds
2,B2,binds
